Pooled drug test results. Numbers come from NIAID ChemDB, via PubChem.

Shared fields: target-level tests; organism: Hepatitis C virus; target: NS5B polymerase

Neighbouring rows are from separate reports.

| structure | strain or isolate | endpoint | tested at | result |
|---|---|---|---|---|
| O=C(N[C@H](C(=O)O)c1c[nH]c2ccc(O)cc12)c1ccc2c(c1)nc(/C=C/c1cc(O)cc(O)c1)n2C1CCCCC1 |  | IC50 |  | 1–5 µM |
| Cc1ccc2cc(-c3nc4cc(C(=O)NC(Cc5c[nH]c6ccc(O)cc56)C(=O)O)ccc4n3C3CCCCC3)ccc2n1 |  | inhibition | 33 µM | 92.74% |
| O=C(NC1(C(=O)Nc2ccc3[nH]c(C(=O)O)cc(=O)c3c2)CCCC1)c1ccc2c(c1)nc(-c1ccoc1)n2C1CCCCC1 |  | IC50 |  | <0.5 µM |
| O=C(O)c1ccc2c(c1)nc(-c1ccc3nc(-c4ccccc4[N+](=O)[O-])ccc3c1)n2C1CCCCC1 |  | inhibition | 100 µM | 101% |
| Cc1nc2cc(C(=O)N[C@@H](Cc3c[nH]c4cc(O)ccc34)C(=O)O)ccc2n1C1CCCCC1 |  | IC50 |  | 10–25 µM |
| O=C(NC(Cc1ccccc1)C(=O)O)c1ccc2c(c1)nc(-c1ccc3nc(-c4ccccc4)cnc3c1)n2C1CCCCC1 |  | inhibition | 33 µM | 95.92% |
| O=C(NC1(C(=O)Nc2ccc3[nH]c(C(=O)O)cc3c2)CCCC1)c1ccc2c(c1)nc(-c1ccoc1)n2C1CCCCC1 |  | IC50 |  | <0.5 µM |
| C=CCC(C)(C)c1nc2cc(C(=O)N[C@H](C(=O)O)c3c[nH]c4ccc(O)cc34)ccc2n1C1CCCCC1 |  | IC50 |  | 10–25 µM |
| O=C(NC(Cc1c[nH]c2ccc(O)cc12)C(=O)O)c1ccc2c(c1)nc(-c1ccc3ncc(-c4ccccc4)cc3c1)n2C1CCCCC1 |  | inhibition | 100 µM | 98.4% |
| CCC[C@]1(CC(=O)O)OCCc2c1[nH]c1c(C)ccc(C#N)c21 | 320-2-1 genotype 1B | IC50 |  | 0.5 µM |
| C[C@@H]1CCCC[C@H]1n1c(-c2ccc[nH]2)nc2cc(C(=O)NC3(C(=O)Nc4ccc(/C=C/C(=O)O)cc4)CCCC3)ccc21 |  | IC50 |  | 0.5–5 µM |
| O=C(O)c1ccc2c(c1)nc(-c1ccc3nc(-c4ccccc4)c(-c4ccccc4)cc3c1)n2C1CCCCC1 |  | inhibition | 100 µM | 99.9% |
| O=C(O)/C=C/c1ccc(NC(=O)C2(NC(=O)c3ccc4c(c3)nc(-c3ccc[nH]3)n4C3CCC3)CCCC2)cc1 |  | IC50 |  | 0.5–5 µM |
| CN(C)C(=O)c1ccc2c(c1)nc(-c1ccoc1)n2C1CCCCC1 |  | IC50 |  | 5–10 µM |
| O=C(NC1(C(=O)Nc2ccc(C(=O)O)c(Cl)c2)CCCC1)c1ccc2c(c1)nc(-c1ccoc1)n2C1CCCCC1 |  | IC50 |  | 0.5–5 µM |
| O=C(N[C@H](C(=O)O)c1c[nH]c2ccc(O)cc12)c1ccc2c(c1)nc(-c1nc3ccccc3[nH]c1=O)n2C1CCCCC1 |  | IC50 |  | 5–10 µM |

2 of the rows above, restated:

structure | strain or isolate | endpoint | tested at | result
O=C(N[C@H](C(=O)O)c1c[nH]c2ccc(O)cc12)c1ccc2c(c1)nc(/C=C/c1cc(O)cc(O)c1)n2C1CCCCC1 |  | IC50 |  | 1–5 µM
O=C(NC1(C(=O)Nc2ccc3[nH]c(C(=O)O)cc(=O)c3c2)CCCC1)c1ccc2c(c1)nc(-c1ccoc1)n2C1CCCCC1 |  | IC50 |  | <0.5 µM

Percent inhibition refers to the dose given; in toxicity tests it is the harm to the cells. An empty or dashed field is not shown. ICn is the concentration giving n% inhibition. Two numbers with a dash give a range or band.